Results of unrelated studies side by side (data: NIAID ChemDB).

Shared fields: tests in culture; species: HIV-1; read by: p24; measure: EC95

ECn is the concentration giving n% inhibition of infection, replication or growth. Two numbers with a dash give a range or band. Conditions beyond the fields shown may differ between rows. An empty or dashed field is not shown.

SMILES	cells	strain	mutations	result
CC(C)NC(=S)N(C)CCC1CN(Cc2ccc(F)cc2)C(=O)c2c(O)c(=O)n(C(C)C)c(=O)n21	MT-4	-	-	<10 µM
C[C@@H]1O[C@@H](CO)O[C@@H]1n1cnc2c(=O)[nH]c(N)nc21	MT-4	-	-	>10 µM
N#Cc1cc(Cl)cc(Oc2cc(CCc3[nH]nc4ncccc34)ccc2Cl)c1	MT-4	-	-	<20 µM
CC(C)n1c(=O)c(O)c2n(c1=O)C(CCN(C)Cc1ccccc1)CN(Cc1ccc(F)cc1)C2=O	MT-4	-	-	<10 µM
O=C(NC1CC1)c1[nH]c(=O)c(O)c2c1CCN(Cc1ccc(F)cc1)C2=O	MT-4	-	-	≤10 µM
CN1CCc2c(c(O)c3n2CCN(Cc2ccc(F)cc2)C3=O)C1=O	MT-4	-	-	≤10 µM
C[C@H]1O[C@@H](CO)O[C@H]1n1cnc2c(N)nc(N)nc21	MT-4	-	-	>10 µM
CNC(=O)c1[nH]c(=O)c(O)c2c1CCN(Cc1ccc(F)cc1)C2=O	MT-4	-	-	≤10 µM
CC1(C)c2nc(C(=O)NCc3ccc(F)cc3)c(O)c(=O)n2CN1Cc1cccnc1	MT-4	-	-	<1 µM
NC(=O)c1ccccc1NC(=O)CSc1nnnn1-c1cccc2ccccc12	MT-4	-	-	<10 µM
CN(C[C@@H](CCN1CCC2(CC1)CS(=O)c1ccccc12)c1cccc(Cl)c1)S(=O)(=O)c1ccccc1	PBMC	YU2	-	12.5–25 µM
COC(=O)c1[nH]c(=O)c(O)c2c1CCN(Cc1ccc(F)cc1)C2=O	MT-4	-	-	≤10 µM
NC(=O)c1cc(F)ccc1CNC(=O)c1nc(N2CCCCS2(=O)=O)c2cccnc2c1O	MT-4	-	-	<5 µM
CC(C)[C@H](NC(=O)OCc1ccccn1)C(=O)N[C@@H](Cc1ccccc1)[C@@H](O)C[C@H](Cc1ccccc1)NC(=O)OCc1cccnc1	MT-4	NL4-3	PR-M46I V82T I84V	3 µM
CCN(CC)C(=O)c1c2c(c(O)c(=O)n1C)C(=O)N(Cc1ccc(F)c(Cl)c1)CC2	MT-4	-	-	≤10 µM
COC(=O)c1ccc(NC(=O)CSc2nnnn2-c2c(C)cc(C)cc2C)c(C)c1	MT-4	-	-	<10 µM
CCN(C(=O)C(=O)N(C)C)C1CN(C)CCn2c1nc(C(=O)NCc1ccc(F)c(C)c1)c(O)c2=O	MT-4	-	-	<1 µM
CC(C)n1c(=O)c(O)c2n(c1=O)C(CCn1ccnc1)CN(Cc1ccc(F)cc1)C2=O	MT-4	-	-	<10 µM
CNC(=O)c1ccccc1CNC(=O)c1nc(N2CCCCS2(=O)=O)c2cccnc2c1O	MT-4	-	-	<5 µM
CC(C)Cn1c(C(=O)N(C)C)c2c(c(O)c1=O)C(=O)N(Cc1ccc(F)c(Cl)c1)CC2	MT-4	-	-	≤10 µM
O=C1c2c(O)c(=O)n(C3CCOCC3)c(=O)n2CCN1Cc1ccc(F)cc1	MT-4	-	-	<10 µM
C[C@@H]1O[C@H](CO)O[C@@H]1n1cnc2c(=O)[nH]c(N)nc21	MT-4	-	-	>10 µM
CN1CCn2c(nc(C(=O)NCc3cccc(Cl)c3)c(O)c2=O)C(N(C)C(=O)C(=O)N(C)C)C1	MT-4	-	-	<1 µM
O=C1c2c(O)c(=O)n(CC3COCCO3)c(=O)n2CCN1Cc1ccc(F)cc1	MT-4	-	-	<10 µM
N#Cc1cc(Cl)cc(Oc2cc(Cl)cc(OCC(=O)Nc3ccc(C#N)cc3Cl)c2)c1	MT-4	-	-	<20 µM
Cn1cnc(CN2CCn3c(nc(C(=O)NCc4ccc(F)cc4)c(O)c3=O)C2(C)C)n1	MT-4	-	-	<1 µM
CN(C)C(=O)c1c2c(c(O)c(=O)n1C)C(=O)N(Cc1ccc(F)c(Cl)c1)CC2	MT-4	-	-	≤10 µM
Cn1ccc(CN2CCn3c(nc(C(=O)NCc4ccc(F)cc4)c(O)c3=O)C2(C)C)n1	MT-4	-	-	<1 µM
N#Cc1cc(Cl)cc(Oc2cc(Cl)cc(OCc3nc4cccc(Cl)c4s3)c2)c1	MT-4	-	-	<20 µM
CCN(CC)C(=O)c1c2c(c(O)c(=O)n1C)C(=O)N(Cc1ccc(F)cc1)CC2	MT-4	-	-	≤10 µM
CC(C)n1c(=O)c(O)c2n(c1=O)CCN(Cc1ccc3ccccc3n1)C2=O	MT-4	-	-	<10 µM
CN(C)C(=O)C(=O)N(C)C1CN(CC2CC2)CCn2c1nc(C(=O)NCc1ccc(F)cc1)c(O)c2=O	MT-4	-	-	<1 µM
CC(=O)N1CCOCC1Cn1c(=O)c(O)c2n(c1=O)CCN(Cc1ccc(F)cc1)C2=O	MT-4	-	-	<10 µM
O=C(CSc1nnnn1-c1ccccc1-c1ccccc1)Nc1ccccc1Cl	MT-4	-	-	<10 µM
Cc1ccc(CNC(=O)c2nc3n(c(=O)c2O)CCN(C)CC3N(C)C(=O)C(=O)N(C)C)cc1Cl	MT-4	-	-	<1 µM
N#Cc1cc(Cl)cc(Oc2cc(OCc3[nH]nc4ncccc34)ccc2Cl)c1	MT-4	-	-	<20 µM
O=C(NC1CCC1)c1[nH]c(=O)c(O)c2c1CCN(Cc1ccc(F)cc1)C2=O	MT-4	-	-	≤10 µM
O=C(CSc1nnnn1-c1cccc2cnccc12)Nc1ccccc1Cl	MT-4	-	-	<10 µM
N#Cc1cc(Cl)cc(Oc2cc(Cl)cc(OCc3nc4ccccc4s3)c2)c1	MT-4	-	-	<20 µM
CN(C)c1ccc(-n2nnnc2SCC(=O)Nc2ccccc2[N+](=O)[O-])c2ccccc12	MT-4	-	-	<10 µM
CNC(=O)c1cc(F)ccc1CNC(=O)c1nc(N2CCCN(C)S2(=O)=O)c2cccnc2c1O	MT-4	-	-	<5 µM
CNc1ccc2c(COc3ccc(Cl)c(Oc4cc(Cl)cc(C#N)c4)c3)[nH]nc2n1	MT-4	-	-	<20 µM
CN1CCn2c(nc(C(=O)NCc3ccc(F)cc3)c(O)c2=O)C(NS(C)(=O)=O)C1	MT-4	-	-	<50 µM
O=C1NCC(CCC2(C(F)(F)F)OC(=O)Nc3ccc(Cl)cc32)O1	MT-4	IIIB	-	78 µM
CN(c1nc(C(=O)NCc2ccc(F)cc2C(N)=O)c(O)c2ncccc12)S(C)(=O)=O	MT-4	-	-	<5 µM
CC(C)n1c(=O)c(O)c2n(c1=O)CCN(Cc1ccc(F)cc1Cl)C2=O	MT-4	-	-	<10 µM

Repeating the final 7 entries:

SMILES	cells	strain	mutations	result
CN(C)c1ccc(-n2nnnc2SCC(=O)Nc2ccccc2[N+](=O)[O-])c2ccccc12	MT-4	-	-	<10 µM
CNC(=O)c1cc(F)ccc1CNC(=O)c1nc(N2CCCN(C)S2(=O)=O)c2cccnc2c1O	MT-4	-	-	<5 µM
CNc1ccc2c(COc3ccc(Cl)c(Oc4cc(Cl)cc(C#N)c4)c3)[nH]nc2n1	MT-4	-	-	<20 µM
CN1CCn2c(nc(C(=O)NCc3ccc(F)cc3)c(O)c2=O)C(NS(C)(=O)=O)C1	MT-4	-	-	<50 µM
O=C1NCC(CCC2(C(F)(F)F)OC(=O)Nc3ccc(Cl)cc32)O1	MT-4	IIIB	-	78 µM
CN(c1nc(C(=O)NCc2ccc(F)cc2C(N)=O)c(O)c2ncccc12)S(C)(=O)=O	MT-4	-	-	<5 µM
CC(C)n1c(=O)c(O)c2n(c1=O)CCN(Cc1ccc(F)cc1Cl)C2=O	MT-4	-	-	<10 µM